Reference: paper PMC4369403

Experiments:
[1] = tested on: Nc1ncnc2c1ncn2[C@@H]1O[C@H](COP(=O)(O)O)[C@@H](O)[C@H]1O; assay: purified protein
[2] = tested on: CC(C)=CCNc1ncnc2c1ncn2[C@@H]1O[C@H](COP(=O)(O)O)[C@@H](O)[C@H]1O; assay: purified protein

Substance: Rv1205 (Log; Rv1205-His6) (Mycobacterium tuberculosis H37Rv)
- Km [1]: 73.1 µM
- Km [2]: 5.6 µM
